Sequences and labels used below:
B1: HIV-1 Env, rebound clone, placebo arm (protein)
chain: MKVRGTKMNWQHLWWRWGTMLLGMLMICKATEEKWVTVYYGVPVWKEATTTLFCASDAKAYEKEAHNVWATHACVPTDPSPQEVVLENVTENFNMWKNNMVEQMHEDIISLWDQSLKPCVKLTPLCVTLNCTDYTNSNSTNHTNSNSSSPTPTAGGEIKNCSFNITTNIRDKIKKEHALFYSLDVVQIDINDNTSYRLISCNTSVITQACPKTTFEPIPIYYCAPAGFAILKCNNKTFDGKGPCKNVSTVQCTHGIRPVVSTQLLLNGSLAEKEIVIRSDNFSDNTKNIIVQLKDPVVINCTRPNNNTRKGIHIGPGRAFYATGKVIGDIRQAYCNISKEEWNKTLGQIVKKLGAQFGNKTTMIFNQSSGGDPEIVTHSFNCGGEFFYCNTSALFNSTWSSNDGNGTWNKINSTETNSTEIILQCRIKQIVNMWQEVGKAMYAPPIKGPIRCSSNITGLILTRDGGNNTGNNSETFRPAGGNMRDNWRSELYKYKIVKIEPLGIAPTKAKRRTVQREKRAVTMGAMFLGFLGAAGSTMGAASLTLTVQARQLLSGIVQQQNNLLRAIEAQQHLLQLTVWGIKQLQARVLAVERYLADQRFLGIWGCSGKLICTTTVPWNNSWSNKSLDSIWNNMTWMQWEKEIENYTGEIYNLIEQAQNQQEQNERELLELDKWASLWNWFDISNWLWYIKIFIMIVGGLIGLRIVFAVLSIVNRVRQGYSPLSLQTLLPTPRGPDRPEGIEGEGGERDRDTSIRLVDGFLALFWDDLRNLCLFSYRHLRDLLLIAARIVELLGLRGWEILKYLWNLLLYWSQELKNSAISLLDATAIAVAEGTDRIIEAVRRFCRGVLHIPRRIRQGFERALQ
B2: HIV-1 Env, rebound clone, placebo arm (protein)
chain: B1 chain with S401R, I411T
B3: HIV-1 Env, rebound clone, placebo arm (protein)
chain: B1 chain with I411T, V437I

Residue numbers refer to the chain shown, from its start. Some of the results follow. Env chains of viruses from a treatment-interruption trial, translated from the printed DNA. IC50 / IC80 of two broadly neutralizing antibodies; lower = more sensitive virus; >50 µg/ml means not reached and <0.001 µg/ml is below the lowest dose. No active / inactive call.

One assay concerns the target antibody 10-1074. Description: neutralization IC50; higher = virus less sensitive to the antibody. How it is done:
(§1)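 Pseudovirus bearing the Env chain mixed with antibody, from 50 µg/ml in fivefold dilutions, on TZM-bl reporter cells, in duplicate.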
For B1, the “neutralization IC50” value was found to be 0.003 µg/mL.

With B2, the “neutralization IC50” value turned out to be 0.006 µg/mL.

B3: the “neutralization IC50” value was determined as 0.008 µg/mL.

A further assay deals with antibody 3BNC117. Described as above. How it is done:
as §1
Regarding B1, the “neutralization IC50” value stood at 0.179 µg/mL.

For the molecule B2, the “neutralization IC50” value is 0.168 µg/mL.

Take B3: the “neutralization IC50” value worked out at 0.099 µg/mL.

The target in a further assay is antibody 10-1074. As to the kind of experiment: neutralization IC80; higher = virus less sensitive to the antibody. How it is done:
as §1
Turning to B1, the “neutralization IC80” value worked out at 0.023 µg/mL.

On to B2, for which the “neutralization IC80” value is 0.034 µg/mL.

As for B3, the “neutralization IC80” value stood at 0.025 µg/mL.

The target in the next assay is antibody 3BNC117. Described as above. How it is done: as §1
In the case of B1, the “neutralization IC80” value was 0.676 µg/mL.

For B2, the “neutralization IC80” value came to 1.27 µg/mL.

For B3, the “neutralization IC80” value worked out at 0.907 µg/mL.

Values taken from the supplement of paper PMC12637763.
